# From PubChem BioAssay AID1347131 (National Center for Advancing Translational Sciences (NCATS), 2019)
# This is one part of the list. Inconclusive results are not listed. The source made the active and inactive calls. Calls come from the whole dose curve; tested in HEK293 reporter line.
# Assay: qHTS Assay for Foot and Mouth Disease Virus Antivirals: Primary Screen against the MLPCN compound library; note: nearly all actives have a fitted effect of over 55% in size
# Conditions: FMDV antiviral cell-based qHTS; at 57.9 µM (top of the series)
row,Compound,"activity, negative = inhibition"
1,O=C(Nc1cc([As](=O)(O)O)ccc1O)c1ccccc1,inactive: -8.33%
2,O=P1(N(CCCl)CCCl)OCCCS1 (stereo not given),inactive: 12.4%
3,O=C(O)CNc1ccc([As](=O)(O)O)cc1,inactive: -3.87%
4,O=[N+]([O-])c1cccc(NC2=NCC(CBr)S2)c1 (stereo not given),inactive: 9.35%
5,COC(=O)C1(C)COP(=O)(Nc2ccccc2)OC1 (stereo not given),inactive: -0.023%
6,O=[N+]([O-])c1ncn(CCn2ncnc2[N+](=O)[O-])n1,inactive: -7.33%
7,O=[N+]([O-])c1cc([N+](=O)[O-])c(CCNc2ccccc2)c([N+](=O)[O-])c1,inactive: -22%
8,Cc1ccc(NP(=O)(Oc2ccccc2)Oc2ccccc2)nc1,inactive: 45.8%
9,O=[N+]([O-])c1cccc2n[nH]nc12,inactive: 19.6%
10,CC(=O)N1C2C3N(C(C)=O)C1C1N(C(C)=O)C(C(N1C(C)=O)N3C(C)=O)N2C(C)=O,inactive: 9.31%
11,COc1ccc(C2=NCC(CBr)S2)cc1 (stereo not given),inactive: 25.4%
12,c1cc(-c2nn[nH]n2)ccc1-c1nn[nH]n1,inactive: -15.5%
13,CC(=O)C1=CCCC2CCC1N2 (stereo not given),inactive: -12.9%
14,CC1CCN(C(=O)Oc2c(Cl)cc(Cl)c3cccnc23)CC1,inactive: 13.1%
15,CN(C)C(=O)OCCc1n(C)cc[n+]1C,inactive: -4.08%
16,CC(C)=N/N=C(\N)N[N+](=O)[O-],inactive: -9.32%
17,CC(C)c1nc(Nc2ccccc2)n(P(=O)(N(C)C)N(C)C)n1,inactive: -18.3%
18,CCN(/C(=N/P(=O)(N1CCOCC1)N1CCOCC1)N1CCOCC1)c1ccc(OC)cc1,inactive: -2.98%
19,Nc1ccc([As](=O)(O)c2ccc(N)cc2)cc1,inactive: -0.643%
20,Clc1ccc(Cl)c(NC2=NCC(CBr)S2)c1 (stereo not given),inactive: -8.04%
21,CN1CCCC(OC(=O)C(c2ccccc2)c2ccccc2)C1 (stereo not given),inactive: -15.4%
22,Cc1ccc(OP(=O)(Nc2nccs2)Oc2ccc(C)cc2)cc1,inactive: 34.4%

row,Compound,"activity, negative = inhibition"
1,COc1ccccc1OP(=O)(Nc1ccc(C)cn1)Oc1ccccc1OC,inactive: -16.5%
2,Cc1ccc(N/C(=N/P(=O)(N2CCOCC2)N2CCOCC2)N2CCOCC2)cc1,inactive: 5.06%
3,CN(C(=O)Cc1ccc(Cl)c(Cl)c1)[C@H]1CCCC[C@H]1N1CCCC1,inactive: -10.3%
4,NC(=O)c1cc([N+](=O)[O-])cc([N+](=O)[O-])c1N,inactive: -11.8%
5,O=[N+]([O-])C1C(O)C(O)C([N+](=O)[O-])C(O)C1O (stereo not given),inactive: -20.8%
6,O=C(NC(Sc1ccncn1)C(Cl)(Cl)Cl)c1ccccc1 (stereo not given),inactive: 4.08%
7,Nc1cc(N)c2nonc2c1[N+](=O)[O-],inactive: -3.26%
8,Cc1ccc(NP(=O)(Oc2ccccc2F)Oc2ccccc2F)nc1,inactive: 7.99%
9,CN(C(=O)Cc1ccc(Cl)c(Cl)c1)[C@H]1CCCC[C@@H]1N1CCCC1,inactive: -17.1% [middle of 7 runs]
10,CCOP(=O)(Nc1ccccc1)OCC,inactive: -16.9%
11,Cc1cc(SC(NC(=O)c2ccc(F)cc2)C(Cl)(Cl)Cl)ncn1 (stereo not given),inactive: 0%
12,CN(C)P(=O)(N(C)C)n1c(Nc2ccccc2)nnc1-c1ccccc1,inactive: 29%
13,O=P(Nc1nc2ccc(Cl)cc2s1)(c1ccccc1)c1ccccc1,inactive: 31.4%
14,CCCC1OP(N)(=O)OCC1CC (stereo not given),inactive: 30.4%
15,O=C(O)c1ccccc1[As](=O)(O)O,inactive: -7.17%
16,CC(=O)Nc1ccc([As](=O)(O)O)cc1,inactive: -4.05%
17,Nc1cccc2ccc([As](=O)(O)O)cc12,inactive: -9.12%
18,CCN(N=Nc1nonc1N)c1nonc1N,inactive: -9.36%
19,O=P1(N(CCCl)CCCl)OCCC2CCCCN21 (stereo not given),inactive: 0.551%
20,Cc1ccc(NP(=O)(Oc2cccc(C)c2)Oc2cccc(C)c2)nc1,inactive: 22.8%
21,c1ccc(-c2nn[nH]n2)c(-c2nn[nH]n2)c1,inactive: -3.2%
22,CCNC(=S)/N=C(\N)N[N+](=O)[O-],inactive: -10.4%

row,Compound,"activity, negative = inhibition"
1,O=C(NC1CCS(=O)(=O)C1)NP(=S)(Oc1ccccc1)Oc1ccccc1 (stereo not given),inactive: 107%
2,CN(C)C(=O)Oc1noc2ccccc12,inactive: -6.7%
3,CC(NC(=O)COC(=O)C(O)(c1ccccc1)c1ccccc1)c1ccccc1 (stereo not given),inactive: -36.4%
4,CCC(=O)N1C2C3N(C(=O)CC)C1C1N(C(=O)CC)C(C(N1C(=O)CC)N3C(=O)CC)N2C(=O)CC,inactive: -0.0905%
5,O=C(OC1CN2CCC1CC2)c1ccccc1 (stereo not given),inactive: -10.2%
6,Cc1ccc(OP(=O)(Nc2ccccn2)Oc2ccc(C)cc2)cc1,inactive: -18.8%
7,CC(=O)NC(SC(=S)N(CC(C)C)CC(C)C)C(Cl)(Cl)Cl (stereo not given),inactive: 0%
8,COC(=O)c1cc2c(s1)N=C(c1ccccc1)N(C)P2(=O)N1CCOCC1 (stereo not given),inactive: -5.69%
9,CC(C)(C)C(=O)NC(Sc1ccccc1)C(Cl)(Cl)Cl (stereo not given),inactive: -17.8%
10,CCc1cc(O)c([N+](=O)[O-])c(C)c1[N+](=O)[O-],inactive: -25.5%
11,CCOc1ccc(C2=NCC(CBr)S2)cc1 (stereo not given),inactive: 6.65%
12,O=P1(Nc2nc3ccc(Cl)cc3s2)COc2ccccc2O1 (stereo not given),inactive: 15%
13,CC(=O)Nc1ccc(Oc2c([N+](=O)[O-])cc([N+](=O)[O-])cc2[N+](=O)[O-])cc1,inactive: -8.79%
14,CC(=O)Nc1ccc([As](=O)(O)O)c(O)c1,inactive: -13.9%
15,C[C@@H]1C=CCP(=O)(Oc2ccccc2)O1 (stereo not given in full),inactive: -6.36%
16,C[C@H]1OP(=O)(Oc2ccccc2)C[C@@H]2O[C@@H]21 (stereo not given in full),inactive: -14.1%
17,Cc1ccccc1CN(C)C(=O)COC(=O)C(O)(c1ccccc1)c1ccccc1,inactive: -0.809%
18,COC(=O)C1(C)COP(=O)(NCc2ccccc2)OC1 (stereo not given),inactive: -20.8%
19,N#C/C(=C\c1ccc(N(CCBr)CCBr)cc1)C(N)=O,inactive: -37.5%
20,CC(=O)c1ccc(N2CC2c2ccncc2)cc1 (stereo not given),inactive: -1.46%
21,c1nnnn1CCn1cnnn1,inactive: 1.69%
